A mixed list of measured activities; the numbers were collected in NIAID ChemDB.

Common to all: tests in culture; organism: Hepatitis C virus

Rows are shuffled and stem from different studies. An empty or dashed field is not shown. Two numbers with a dash give a range or band. ECn is the concentration giving n% inhibition of infection, replication or growth.

{"SMILES": "CNC(=O)c1c(-c2ccc(F)cc2)oc2cc(N(C)S(C)(=O)=O)c(OC(F)F)cc12", "method": "replicon", "endpoint": "EC50", "cell line": "Huh7", "value": "<1 µM"}
{"SMILES": "O=C(Nc1ccc(Cl)cc1)c1cc(-n2cccc2)n(-c2ccc(Cl)cc2)n1", "method": "luciferase / replicon", "endpoint": "EC90", "cell line": "Huh 5-2", "strain or isolate": "Con1 (gt 1b)", "value": "170.9 µM"}
{"SMILES": "Cc1ccc2c(c1)c(Sc1ccc(N)cc1)cc(=O)n2C", "method": "luciferase / replicon", "endpoint": "EC50", "cell line": "Huh-Luc-Neo", "value": "<1 µM"}
{"SMILES": "CCC[C@H](NC(=O)[C@@H]1C2CCCC2CN1C(=O)[C@@H](NC(=O)[C@@H](NC(=O)c1cnccn1)C(C)C)C(C)(C)C)C(=O)C(=O)NC(C)CC", "endpoint": "EC50", "cell line": "Huh7", "value": "3.48 µM"}
{"SMILES": "CCC[C@H](NC(=O)[C@@H]1C2CCCC2CN1C(=O)[C@@H](NC(=O)[C@@H](NC(=O)c1cnccn1)C1CCCCC1)C(C)(C)C)C(=O)C(=O)N[C@@H](C)c1ccncc1", "method": "replicon", "endpoint": "EC50", "cell line": "Huh7", "value": "0.31 µM"}
{"SMILES": "COC(=O)N[C@H](C(=O)N1CCCC1c1ncc(-c2ccc(-c3ccc(-c4cnc([C@@H]5CC(C)CN5C(=O)[C@@H](NC(=O)CO)C(C)C)[nH]4)cc3)cc2)[nH]1)C(C)C", "method": "luciferase", "endpoint": "EC50", "changes": "Q30R", "cell line": "Lunet", "strain or isolate": "1a", "value": "0.000794 µM"}
{"SMILES": "CCOc1cc(N2CCOCC2)ccc1Nc1ncnc2ccc(-c3nccs3)cc12", "method": "luciferase", "endpoint": "EC50", "cell line": "Huh", "strain or isolate": "1b", "value": "<1 µM"}
{"SMILES": "O=c1c(O)c(-c2ccc(O)c(O)c2)oc2cc(O)c(O)c(O)c12", "method": "replicon", "endpoint": "EC50", "strain or isolate": "genotype 2a JFH1", "value": "11 µM"}
{"SMILES": "CCC[C@H](NC(=O)[C@@H]1[C@H]2CCC[C@H]2CN1C(=O)[C@@H](NC(=O)[C@@H](NC(=O)c1cnccn1)C1CCCCC1)C(C)(C)C)C(=O)C(=O)NC1CC1", "method": "replicon", "endpoint": "EC50", "cell line": "Huh7", "value": "0.31 µM"}
{"SMILES": "CCCOc1cc2c(C(=O)NC)c(-c3ccc(F)cc3)oc2cc1N(C)S(C)(=O)=O", "method": "replicon", "endpoint": "EC50", "cell line": "Huh7", "value": "<1 µM"}
{"SMILES": "Cc1c(C(=O)Nc2ccccc2)nn(-c2ccc(Cl)cc2)c1-n1cccc1", "method": "luciferase / replicon", "endpoint": "EC90", "cell line": "Huh 5-2", "strain or isolate": "Con1 (gt 1b)", "value": "57.1 µM"}
{"SMILES": "NC(=O)c1nc(C#CCc2cccc(F)c2)n(COCCO)n1", "method": "luciferase / reporter gene", "endpoint": "EC50", "cell line": "Huh 5-2", "value": "10 µg/mL"}
{"SMILES": "Cn1c(=O)cc(Sc2c(Cl)cccc2Cl)c2ccccc21", "method": "luciferase / replicon", "endpoint": "EC50", "cell line": "Huh-Luc-Neo", "value": "1–10 µM"}
{"SMILES": "NC(=O)c1nc(C#CCC2(O)CCCC2)n(COCCO)n1", "method": "luciferase / reporter gene", "endpoint": "EC50", "cell line": "Huh 5-2", "value": ">50 µg/mL"}
{"SMILES": "COc1ccc2c(c1)C[C@@H]1C[C@]1(C(=O)N1C[C@H]3CC[C@@H](C1)CN(S(=O)(=O)C(C)C)C3)Cn1c-2c(C2CCCCC2)c2ccc(C(=O)NS(=O)(=O)C(C)C)cc21", "method": "luciferase / replicon", "endpoint": "EC50", "cell line": "HCV replicon cells", "strain or isolate": "H77", "value": "0.007 µM"}
{"SMILES": "Nc1ncnc2c1c(Cl)nn2[C@@H]1C=C(CO)[C@@H](O)[C@H]1O", "method": "luciferase", "endpoint": "EC50", "cell line": "Huh7", "value": "87.6 µM"}
{"SMILES": "NC(=O)c1nc(C#CCc2ccc(C(F)(F)F)cc2)n(COCCO)n1", "method": "luciferase / reporter gene", "endpoint": "EC50", "cell line": "Huh 5-2", "value": "5 µg/mL"}
{"SMILES": "C[C@@]1(F)[C@H](O)[C@@H](CO)O[C@H]1n1ccc(N)nc1=O", "method": "replicon / PCR", "endpoint": "EC90", "strain or isolate": "S282T mutant", "value": "23.8 µM"}
{"SMILES": "Nc1ncnc2c1c(Br)nn2[C@@H]1C=C(CO)[C@@H](O)[C@H]1O", "method": "luciferase", "endpoint": "EC50", "cell line": "Huh7", "value": "32.2 µM"}
{"SMILES": "CNC(=O)c1c(-c2ccc(F)cc2)oc2cc(OC)c(OC)cc12", "method": "replicon", "endpoint": "EC50", "cell line": "Huh7", "value": "<1 µM"}
{"SMILES": "C=C[C@@H]1C[C@]1(NC(=O)[C@@H]1C[C@@H]2CN1C(=O)[C@H](C(C)(C)C)NC(=O)C[C@@H]1C[C@H]1CCCCCc1nc3ccc(OC)cc3nc1O2)C(=O)NS(=O)(=O)C1CC1", "endpoint": "EC50", "value": "0.002 µM"}
{"SMILES": "COc1ccc2c(O[C@@H]3C[C@H]4C(=O)N[C@]5(C(=O)O)C[C@H]5/C=C\\CCCCC[C@H](NC(=O)OC(C)(C)C)C(=O)N4C3)cc(-c3ccccc3)nc2c1", "method": "replicon", "endpoint": "EC50", "cell line": "Huh7", "value": "0.077 µM"}
{"SMILES": "C=CC1C[C@]1(NC(=O)C1C[C@@H](Oc2cc(-c3ccccc3)nc3ccccc23)CN1C(=O)[C@@H](NC(=O)[C@@H](NC(=O)[C@@H](CCC(=O)O)NC(=O)[C@H](CC(=O)O)NC(C)=O)C1CCCCC1)C(C)(C)C)C(=O)O", "method": "replicon", "endpoint": "EC50", "cell line": "Huh7", "value": "1.9 µM"}
{"SMILES": "Cn1c(=O)cc(Sc2ccc(NC(=O)[C@H](Cc3ccc(F)cc3)NC(=O)OC(C)(C)C)cc2)c2ccccc21", "method": "luciferase / replicon", "endpoint": "EC50", "cell line": "Huh-Luc-Neo", "value": "1–10 µM"}
{"SMILES": "CNC(=O)c1c(-c2ccc(F)cc2)oc2cc(C(C)(C)O)c(OC)cc12", "method": "replicon", "endpoint": "EC50", "cell line": "Huh7", "value": "<1 µM"}
{"SMILES": "NC(=O)c1nc(C#CCc2ccccc2F)n(COCCO)n1", "method": "luciferase / reporter gene", "endpoint": "EC50", "cell line": "Huh 5-2", "value": "20 µg/mL"}
{"SMILES": "Cn1c(=O)cc(Sc2ccc(NC(=O)[C@@H](NC(=O)OC(C)(C)C)C3CCCCC3)cc2)c2ccccc21", "method": "luciferase / replicon", "endpoint": "EC50", "cell line": "Huh-Luc-Neo", "value": "<1 µM"}
{"SMILES": "CCC[C@H](NC(=O)[C@@H]1[C@H]2CCC[C@H]2CN1C(=O)[C@@H](NC(=O)[C@@H](NC(=O)c1cnccn1)C1CCCCC1)C(C)(C)C)C(=O)C(=O)N[C@@H](C)Cc1ccc(C)cc1", "method": "replicon", "endpoint": "EC50", "cell line": "Huh7", "value": "0.47 µM"}
{"SMILES": "O=C(NCNC(=O)c1ccccc1)c1ccccc1", "method": "GFP", "endpoint": "EC50", "cell line": "Huh 7 replicon cells", "value": ">50 µM"}
{"SMILES": "CNC(=O)c1c(-c2ccc(F)cc2)oc2cc(C(C)(C)N)c(OC)cc12", "method": "replicon", "endpoint": "EC50", "cell line": "Huh7", "value": "<30 µM"}
{"SMILES": "O=c1[nH]c(=O)n2c3c1nnn3CC1OC2[C@H](O)[C@@H]1O", "method": "replicon", "endpoint": "EC90", "cell line": "Huh7", "value": "13 µM"}
{"SMILES": "Cc1ccc(Sc2cc(=O)n(C)c3ccc(C)cc23)cc1", "method": "luciferase / replicon", "endpoint": "EC50", "cell line": "Huh-Luc-Neo", "value": "<1 µM"}
{"SMILES": "COc1ccc2c(O[C@@H]3CC4C(=O)NC5(C(=O)O)CC5/C=C\\CCCCCC(NC(=O)OC(C)(C)C)C(=O)N4C3)ccnc2c1", "method": "replicon", "endpoint": "EC50", "cell line": "Huh7", "value": "1.2 µM"}
{"SMILES": "NC(=S)N/N=C/c1ccc(Br)cc1F", "method": "PCR", "endpoint": "EC90", "cell line": "Huh7 ET", "value": ">20 µM"}
{"SMILES": "Cn1c(=O)cc(Sc2ccc(I)cc2)c2ccccc21", "method": "luciferase / replicon", "endpoint": "EC50", "cell line": "Huh-Luc-Neo", "value": "1–10 µM"}
{"SMILES": "CNC(=O)c1c(-c2ccccc2)oc2ccc(C(C)C)cc12", "method": "replicon", "endpoint": "EC50", "cell line": "Huh7", "value": "<10 µM"}
{"SMILES": "NC(=O)c1nc(C#CCC2(O)CCCCC2)n(COCCO)n1", "method": "luciferase / reporter gene", "endpoint": "EC50", "cell line": "Huh 5-2", "value": ">50 µg/mL"}
{"SMILES": "CNC(=O)c1c(-c2ccc(F)cc2)oc2cc(N(C(C)C)S(C)(=O)=O)c(OC(C)C)cc12", "method": "replicon", "endpoint": "EC50", "cell line": "Huh7", "value": "<1 µM"}
{"SMILES": "CNC(=O)N1C[C@H]2COC[C@@H](C1)CN(C(=O)[C@]13C[C@H]1Cc1cc(OC)ccc1-c1c(C4CCCCC4)c4ccc(C(=O)NS(=O)(=O)C(C)C)cc4n1C3)C2", "method": "luciferase / replicon", "endpoint": "EC50", "cell line": "HCV replicon cells", "strain or isolate": "H77", "value": "0.2 µM"}
{"SMILES": "Nc1c(C(=O)N2CCOCC2)sc2nc3c(c(C(F)(F)F)c12)CCc1ccccc1-3", "method": "luciferase / replicon", "endpoint": "EC50", "cell line": "Huh7", "value": "3.9 µM"}
{"SMILES": "COc1ccc(CC#Cc2nc(C(N)=O)nn2COCCO)cc1", "method": "luciferase / reporter gene", "endpoint": "EC50", "cell line": "Huh 5-2", "value": ">50 µg/mL"}
{"SMILES": "CCOc1nc(N)nc2c1ncn2[C@@H]1O[C@@H]2COP(=O)(OC(C)C)O[C@H]2[C@@]1(C)F", "method": "PCR", "endpoint": "EC50", "cell line": "Lunet", "strain or isolate": "1a", "value": "0.2 µM"}
{"SMILES": "O=C(Nc1ccccc1)c1cnn(-c2ccc(Cl)cc2)c1-n1cccc1", "method": "luciferase / replicon", "endpoint": "EC50", "cell line": "Huh 5-2", "strain or isolate": "Con1 (gt 1b)", "value": ">241.2 µM"}

A second listing of 3 rows from above:

SMILES	method	endpoint	changes	cell line	strain or isolate	value
Nc1ncnc2c1c(Cl)nn2[C@@H]1C=C(CO)[C@@H](O)[C@H]1O	luciferase	EC50		Huh7		87.6 µM
Cc1c(C(=O)Nc2ccccc2)nn(-c2ccc(Cl)cc2)c1-n1cccc1	luciferase / replicon	EC90		Huh 5-2	Con1 (gt 1b)	57.1 µM
CNC(=O)c1c(-c2ccc(F)cc2)oc2cc(C(C)(C)O)c(OC)cc12	replicon	EC50		Huh7		<1 µM